# Measured values as given in publication PMC12474298.
# B1: unnamed (parent)
# chain 1: not shown
# chain 2: ETKKRRRILE
# Variants of: B1
# Assay: FP assay
# Conditions: with partner chain of the complex shown; parent: 609 nM
row,Variant,Kd [µM]
1,chain 2 R5A,8.76
